Experimental data: US11168092B2 (priority 2019, dated 2021)

Columns and labels:
[1] = tested on: ovarian cancer cells (SK-OV-3); experiment: SRB bioassay, cytotoxicity on ovarian cancer cells; type: cell-based; design: unit not given here; conditions: 72 hours
[2] = tested on: skin cancer cells (SK-MEL-2); experiment: SRB bioassay, cytotoxicity on skin cancer cells; type: cell-based; design: unit not given here; conditions: 72 hours
[3] = tested on: colorectal cancer cells (HCT15); experiment: SRB bioassay, cytotoxicity on colorectal cancer cells; type: cell-based; design: unit not given here; conditions: 72 hours
[4] = tested on: lung cancer cells (A549); experiment: SRB bioassay, cytotoxicity on lung cancer cells; type: cell-based; design: unit not given here; conditions: 72 hours
[5] = tested on: lung cancer cells (A549), ovarian cancer cells (SK-OV-3), skin cancer cells (SK-MEL-2), and colorectal cancer cells (HCT15); conditions: read-out: IC50 value, over lung
[6] = SK-OV-3, concentration 0.0001 (mM)
[7] = SK-OV-3, concentration 0.001 (mM)
[8] = SK-OV-3, concentration 0.01 (mM)
[9] = SK-OV-3, concentration 0.1 (mM)
[10] = SK-OV-3, concentration 1.0 (mM)
[11] = SK-OV-3, concentration 10.0 (mM)
[12] = SK-MEL-2, concentration 0.0001 (mM)
[13] = SK-MEL-2, concentration 0.001 (mM)
[14] = SK-MEL-2, concentration 0.01 (mM)
[15] = SK-MEL-2, concentration 0.1 (mM)
[16] = SK-MEL-2, concentration 1.0 (mM)
[17] = SK-MEL-2, concentration 10.0 (mM)
[18] = HCT15, concentration 0.0001 (mM)
[19] = HCT15, concentration 0.001 (mM)

| Molecule | Anticancer activity (value at given concentration) [1, 6] | Anticancer activity (value at given concentration) [1, 7] | Anticancer activity (value at given concentration) [1, 8] | Anticancer activity (value at given concentration) [1, 9] | Anticancer activity (value at given concentration) [1, 10] | Anticancer activity (value at given concentration) [1, 11] | Anticancer activity (value at given concentration) [2, 12] | Anticancer activity (value at given concentration) [2, 13] | Anticancer activity (value at given concentration) [2, 14] | Anticancer activity (value at given concentration) [2, 15] | Anticancer activity (value at given concentration) [2, 16] | Anticancer activity (value at given concentration) [2, 17] | Anticancer activity (value at given concentration) [3, 18] | Anticancer activity (value at given concentration) [3, 19] | Anticancer activity (value at given concentration) ([3]; HCT15, concentration 0.01 (mM)) | Anticancer activity (value at given concentration) ([3]; HCT15, concentration 0.1 (mM)) | Anticancer activity (value at given concentration) ([3]; HCT15, concentration 1.0 (mM)) | Anticancer activity (value at given concentration) ([3]; HCT15, concentration 10.0 (mM)) | other results |
| --- | --- | --- | --- | --- | --- | --- | --- | --- | --- | --- | --- | --- | --- | --- | --- | --- | --- | --- | --- |
| CC1=C[C@H]2O[C@@H]3C[C@@H](OC(=O)/C=C\C=C\C(OCCC4=CC(=O)OC4)C(C)O)[C@](C)([C@@]2(CO)CC1)[C@]31CO1 (stereo partly shown) | 93.40 | 96.29 | 99.67 | 99.82 | 102.24 | 96.88 |  |  |  |  |  |  |  |  |  |  |  |  |  |
| CC1=C[C@H]2O[C@@H]3C[C@@H](OC(=O)/C=C\C=C\C4([C@H](C)O)OCC/C(=C\C(=O)O)[C@@H]4O)[C@](C)([C@@]2(CO)CC1)[C@]31CO1 (stereo partly shown) | 98.81 | 98.43 | 102.58 | 100.26 | 98.79 | 18.74 |  |  |  |  |  |  |  |  |  |  |  |  |  |
| CC1=C[C@H]2O[C@@H]3C[C@H]4OC(=O)/C=C\C=C\[C@]5([C@H](C)O)OCC/C(=C\C(=O)OC[C@@]2(CC1)[C@]4(C)[C@]31CO1)[C@H]5O | 102.85 | 97.87 | 105.06 | 104.50 | 101.23 | 2.60 | 92.12 | 92.10 | 101.18 | 104.75 | 103.54 | 17.51 | 102.08 | 105.12 | 102.77 | 105.17 | 103.82 | −63.17 |  |
| COC(=O)/C=C/C=C/[C@@H](OCC/C(C)=C/C(=O)OC[C@]12CCC(C)=C[C@H]1O[C@@H]1C[C@@H](O)[C@@]2(C)[C@]12CO2)[C@@H](C)O | 94.45 | 100.12 | 99.81 | 102.80 | 102.54 | 96.28 |  |  |  |  |  |  |  |  |  |  |  |  |  |
| (1R,2′S,4Z,6E,8R,12E,16aR,20aR,22R,23aS)-8-((R)-1-hydroxyethyl)-12,19,23a-trimethyl-1,10,11,17,18,20a,22,23a-octahydrospiro[1,22-methano[1,6,12]trioxacyclooctadecino[3,4-d]chromene-23,2′-oxirane]-3,14(8H,16H)-dione | −82.51 | −81.43 | −90.31 | −90.85 | −45.23 | −36.89 | −54.78 | −56.49 | −65.28 | −80.17 | −59.12 | −32.08 | −65.65 | −52.68 | −65.82 | −71.83 | −67.64 | −49.09 | Anticancer activity (value at given concentration) ([4]; A549, concentration 0.0001 (mM)): −22.72; Anticancer activity (value at given concentration) ([4]; A549, concentration 0.001 (mM)): −16.42; Anticancer activity (value at given concentration) ([4]; A549, concentration 0.01 (mM)): −10.11; Anticancer activity (value at given concentration) ([4]; A549, concentration 0.1 (mM)): −56.45; Anticancer activity (value at given concentration) ([4]; A549, concentration 1.0 (mM)): −34.39; Anticancer activity (value at given concentration) ([4]; A549, concentration 10.0 (mM)): −64.60; IC50 [5]: < 0.1 nM |
| (2Z,4E)-(2R,2′S,4R,5S,5aR,9aR)-5a-((((E)-5-hydroxy-3-methylpent-2-enoyl)oxy)methyl)-5,8-dimethyl-2,3,4,5,5a,6,7,9a-octahydrospiro[2,5-methanobenzo[b]oxepine-10,2′-oxiran]-4-yl-7-hydroxy-6-(2-(5-oxo-2,5-dihydrofuran-3-yl)ethoxy)octa-2,4-dienoate | 87.46 | 82.77 | 34.41 | −63.80 | −73.49 | −69.86 | 96.64 | 98.23 | 84.56 | 36.36 | −39.83 | −53.70 | 102.53 | 97.10 | 17.31 | −68.64 | −68.53 | −65.16 |  |
